# pIC50: −log10 of the molar value.
# Amino acid sequences for entries named in this document (tags omitted). A change or cut given only in a name is not applied to a line headed by its entry. Residues count along the entry.
# UniProt P26663, 1027-1208 limits assumed: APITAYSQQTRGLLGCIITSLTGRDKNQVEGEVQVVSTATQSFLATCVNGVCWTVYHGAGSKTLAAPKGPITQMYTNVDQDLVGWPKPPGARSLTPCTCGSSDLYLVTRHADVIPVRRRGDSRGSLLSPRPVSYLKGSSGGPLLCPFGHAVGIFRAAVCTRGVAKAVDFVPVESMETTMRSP
# Molecular target: HCV NS3 protease (Hepatitis C virus genotype 1b, UniProt P26663)
# Assay: Inhibition of NS3 protease (HPLC cleavage assay, NS3/4A complex with Pep4AK, substrate peptide 4AB)
# Format: biochemical
# Settings: Table 4 indoline keto acids and related; tested form: trifluoroacetate
smiles,measurement,value
CC(C)C[C@H](NC(=O)C1(Cc2ccsc2C(=O)O)Cc2ccccc2N1)C(=O)NC(CC(F)F)C(=O)C(=O)O (stereo partly shown),pIC50,6.15

# From patent publication US6867284B1, “Peptide inhibitors of hepatitis C virus NS3 protease” (Istituto di Ricerche di Biologia Molecolare P. Angeletti …, priority 1998, dated 2005)
